PubChem BioAssay AID1224833 | University of Georgia – 2016
Aim: 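Host factors restraining rotavirus as candidate antiviral genes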 (primary screen). Cell system: monkey MA104 kidney cells. Knock-down reagent: siRNA pool against human genes, 50 nM. Time to read-out: 48 h knock-down before infection; read 24 h after infection. Treatment: infection with rotavirus strain RV3 two days after transfection; infectious dose for this stage not given. Detection: 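Rotavirus antigen per well by fluorescent immunoassay, normalised to non-targeting control wells on each plate and given as a standard z-score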. Scale: z-score vs non-targeting control: higher = more rotavirus replication than with non-targeting control. Call rule: In these data the active calls have z-score vs non-targeting control at about -1 or lower, or at about 1 or higher. Meaning of the calls: active = z-score beyond 1 either way; inactive = z-score within 1 of zero.
The whole screen tested about 12,000 reagents; below is a part drawn at random. About 5,600 of them (46%) count as active. 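Active calls cover z-scores past 1 in both directions, so they include lowered as well as raised rotavirus replication.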 A number with no mark means an inactive call.

gene symbol | z-score vs non-targeting control
TUBA1C | 0.696
LDHC | -0.59
VASP | -0.917
LTB4R | 1.65 (active)
TBCD | -0.897
RCSD1 | -0.13
CNTNAP2 | -2.13 (active)
ACTR1A | -0.694
NTN1 | -0.212
TNFRSF21 | -0.528
SLCO1A2 | -0.184
COL19A1 | -0.937
INHBC | 1.21 (active)
PRRG3 | 0.393
GPX6 | -0.963
C6orf89 | -1.26 (active)
HOXC9 | -2.36 (active)
DCAF5 | -0.474
ATAT1 | -0.99
PIP4P1 | -0.437
PAFAH1B2 | 1.97 (active)
ORC3 | -0.721
VCY | 1.32 (active)
DNTTIP1 | -0.675
MPV17 | 0.0025
NUFIP1 | 0.22
ANKRD2 | -2.24 (active)
OR2H2 | -0.436
UTS2B | -0.556
CKAP2 | 0.565

Looked up above.
NUFIP1, z-score vs non-targeting control → 0.22
ANKRD2, z-score vs non-targeting control = -2.24 (active)
Value for TUBA1C under “z-score vs non-targeting control”: 0.696
For “z-score vs non-targeting control”, TBCD reads -0.897
Under “z-score vs non-targeting control”, UTS2B shows -0.556
For “z-score vs non-targeting control”, NTN1 has -0.212

The results go on.
gene symbol | z-score vs non-targeting control
MRPL47 | 0.225
BFSP1 | 0.68
UBD | -1.04 (active)
SMARCC1 | 1.47 (active)
ITGB2 | -0.549
OR6C6 | -1.52 (active)
PDCD6 | -1.01 (active)
GRB2 | 0.734
TRAPPC5 | -1.43 (active)
SETD5 | -0.539
NSMCE4A | 1.45 (active)
TFPT | -0.0788
MYH9 | 3.03 (active)
HNRNPH2 | -2.07 (active)
CHTF8 | 0.877
ELAVL2 | -0.8
NR2E1 | -0.966
IMPDH2 | -1.41 (active)
RASSF1 | -2.48 (active)
IST1 | 0.841
H1-5 | -1.57 (active)
FCAMR | 1.44 (active)
SYCP2 | -1.05 (active)
DNAJC28 | 0.161
L3MBTL4 | 0.14
TNNI2 | -2.25 (active)
MGST1 | -0.974
PABPN1 | 0.266
NFE2L3 | -1.33 (active)
CFHR4 | -1.33 (active)
MTHFS | 0.89
ARSA | 0.74
AP3D1 | -1.11 (active)
QTRT1 | -1.12 (active)
IL15 | -1.47 (active)
SEPTIN5 | 0.516
TNFSF12-TNFSF13 | 1.31 (active)
RSAD2 | -0.634
NEUROD2 | -1.13 (active)
ZNG1C | 0.53
MIGA2 | 1.37 (active)
TMEM201 | -0.551
ATP6V0E2 | -1.27 (active)
PCDH20 | 1.1 (active)
CRYAA | 0.844
